Patent US20190040083A1 (priority 2016, published 2019)

Legend:
[1] = tested on: Acinetobacter baumannii NCTC 13420; details: A. baumannii NCTC 13420; 16-20 h incubation; mode of three experiments
[2] = tested on: Acinetobacter baumannii ATCC 19606; details: A. baumannii ATCC 19606; 16-20 h incubation; mode of three experiments
[3] = tested on: Enterobacter cloacae NCTC 13406; details: E. cloacae NCTC 13406; 16-20 h incubation; mode of three experiments
[4] = tested on: Escherichia coli ATCC 25922; details: E. coli ATCC 25922; 16-20 h incubation; mode of three experiments
[5] = tested on: Haemophilus influenzae ATCC 49247; details: H. influenzae ATCC 49247; 16-20 h incubation; mode of three experiments
[6] = tested on: Klebsiella pneumoniae ATCC 700603; details: K. pneumoniae ATCC 700603; 16-20 h incubation; mode of three experiments
[7] = tested on: Pseudomonas aeruginosa ATCC 27853; details: P. aeruginosa ATCC 27853; 16-20 h incubation; mode of three experiments
[8] = tested on: Staphylococcus aureus ATCC 29213; details: S. aureus ATCC 29213; 16-20 h incubation; mode of three experiments
[9] = tested on: Streptococcus pneumoniae ATCC 49619; details: S. pneumoniae ATCC 49619; 16-20 h incubation; mode of three experiments
[10] = tested on: P. aeruginosa NCTC 13437; assay: MIC broth microdilution, P. aeruginosa NCTC 13437; details: 16-20 h incubation, mode of three experiments

Question: Which MIC [1] does the source give for `COc1ncc2ccc(=O)n(CCN3CC[C@@H]4[C@@H](C3)OC(=O)N4c3ccc4c(n3)NC(=O)CO4)c2n1` (relative stereo) here?
Answer: Its MIC is “B (a MIC of from 1 to 10 is assigned the letter B)”.

Question: And the MIC [2]?
Answer: The MIC was “B (a MIC of from 1 to 10 is assigned the letter B)”.

Question: What about the MIC [3] of the same compound?
Answer: Its MIC is “C (a MIC of from 10 to 100 is assigned the letter C)”.

Question: What about the MIC [4] of the same compound?
Answer: Its MIC is “C (a MIC of from 10 to 100 is assigned the letter C)”.

Question: And the MIC [5]?
Answer: The MIC was “B (a MIC of from 1 to 10 is assigned the letter B)”.

Question: And the MIC [6]?
Answer: Its MIC is “C (a MIC of from 10 to 100 is assigned the letter C)”.

Question: What about the MIC [7] of the same compound?
Answer: The MIC was “C (a MIC of from 10 to 100 is assigned the letter C)”.

Question: And the MIC [8]?
Answer: The MIC was “A (an MIC (in μg/mL) of less or equal to 1 is assigned the letter A)”.

Question: What about the MIC [9] of the same compound?
Answer: The MIC was “A (an MIC (in μg/mL) of less or equal to 1 is assigned the letter A)”.

Question: And the MIC [10]?
Answer: Its MIC is “C (a MIC of from 10 to 100 is assigned the letter C)”.

Question: Which MIC [1] does the source give for `COc1ccc2ccc(=O)n(CCN3CC[C@@H]4[C@H](C3)OC(=O)N4c3ccc4c(n3)NC(=O)CO4)c2n1` (relative stereo) here?
Answer: The MIC was “A (an MIC (in μg/mL) of less or equal to 1 is assigned the letter A)”.

Question: What about the MIC [2] of the same compound?
Answer: Its MIC is “A (an MIC (in μg/mL) of less or equal to 1 is assigned the letter A)”.

Question: And the MIC [3]?
Answer: Its MIC is “B (a MIC of from 1 to 10 is assigned the letter B)”.

Question: What about the MIC [4] of the same compound?
Answer: The MIC was “B (a MIC of from 1 to 10 is assigned the letter B)”.

Question: And the MIC [5]?
Answer: Its MIC is “B (a MIC of from 1 to 10 is assigned the letter B)”.

Question: What about the MIC [6] of the same compound?
Answer: The MIC was “C (a MIC of from 10 to 100 is assigned the letter C)”.

Question: And the MIC [7]?
Answer: Its MIC is “C (a MIC of from 10 to 100 is assigned the letter C)”.

Question: What about the MIC [8] of the same compound?
Answer: Its MIC is “A (an MIC (in μg/mL) of less or equal to 1 is assigned the letter A)”.

Question: What about the MIC [9] of the same compound?
Answer: The MIC was “A (an MIC (in μg/mL) of less or equal to 1 is assigned the letter A)”.

Question: What about the MIC [10] of the same compound?
Answer: Its MIC is “B (a MIC of from 1 to 10 is assigned the letter B)”.

Question: With `N#Cc1ccc2ccc(=O)n(CCN3CC[C@@H]4[C@H](C3)OC(=O)N4c3ccc4c(n3)NC(=O)CO4)c2c1` (relative stereo) as the compound, how does the MIC [1] read?
Answer: The MIC was “A (an MIC (in μg/mL) of less or equal to 1 is assigned the letter A)”.

Question: And the MIC [2]?
Answer: Its MIC is “A (an MIC (in μg/mL) of less or equal to 1 is assigned the letter A)”.

Question: What about the MIC [3] of the same compound?
Answer: The MIC was “B (a MIC of from 1 to 10 is assigned the letter B)”.

Question: And the MIC [4]?
Answer: The MIC was “A (an MIC (in μg/mL) of less or equal to 1 is assigned the letter A)”.

Question: And the MIC [5]?
Answer: The MIC was “A (an MIC (in μg/mL) of less or equal to 1 is assigned the letter A)”.

Question: What about the MIC [6] of the same compound?
Answer: Its MIC is “C (a MIC of from 10 to 100 is assigned the letter C)”.

Question: What about the MIC [7] of the same compound?
Answer: The MIC was “B (a MIC of from 1 to 10 is assigned the letter B)”.

Question: And the MIC [8]?
Answer: Its MIC is “A (an MIC (in μg/mL) of less or equal to 1 is assigned the letter A)”.

Question: What about the MIC [9] of the same compound?
Answer: Its MIC is “A (an MIC (in μg/mL) of less or equal to 1 is assigned the letter A)”.

Question: And the MIC [10]?
Answer: The MIC was “B (a MIC of from 1 to 10 is assigned the letter B)”.

Question: What does the source list for `COc1ncc2ccc(=O)n(CCN3CC[C@@H]4[C@H](C3)OC(=O)N4c3ccc4c(n3)NC(=O)CO4)c2n1` (relative stereo)?
Answer: MIC [1]: B (a MIC of from 1 to 10 is assigned the letter B); MIC [2]: B (a MIC of from 1 to 10 is assigned the letter B); MIC [3]: C (a MIC of from 10 to 100 is assigned the letter C); MIC [4]: C (a MIC of from 10 to 100 is assigned the letter C); MIC [5]: B (a MIC of from 1 to 10 is assigned the letter B); MIC [6]: C (a MIC of from 10 to 100 is assigned the letter C); MIC [7]: C (a MIC of from 10 to 100 is assigned the letter C); MIC [8]: A (an MIC (in μg/mL) of less or equal to 1 is assigned the letter A); MIC [9]: A (an MIC (in μg/mL) of less or equal to 1 is assigned the letter A); MIC [10]: C (a MIC of from 10 to 100 is assigned the letter C)

Question: How did the MIC [1] turn out when `COc1cnc2ccc(=O)n(CCN3CC[C@@H]4[C@H](C3)OC(=O)N4c3ccc4c(n3)NC(=O)CO4)c2c1` (relative stereo) was run?
Answer: The MIC was “A (an MIC (in μg/mL) of less or equal to 1 is assigned the letter A)”.

Question: What about the MIC [2] of the same compound?
Answer: Its MIC is “B (a MIC of from 1 to 10 is assigned the letter B)”.

Question: And the MIC [3]?
Answer: The MIC was “C (a MIC of from 10 to 100 is assigned the letter C)”.

Question: And the MIC [4]?
Answer: The MIC was “B (a MIC of from 1 to 10 is assigned the letter B)”.

Question: What about the MIC [5] of the same compound?
Answer: The MIC was “A (an MIC (in μg/mL) of less or equal to 1 is assigned the letter A)”.

Question: What about the MIC [6] of the same compound?
Answer: Its MIC is “C (a MIC of from 10 to 100 is assigned the letter C)”.

Question: And the MIC [7]?
Answer: Its MIC is “C (a MIC of from 10 to 100 is assigned the letter C)”.

Question: What about the MIC [8] of the same compound?
Answer: The MIC was “A (an MIC (in μg/mL) of less or equal to 1 is assigned the letter A)”.

Question: What about the MIC [9] of the same compound?
Answer: Its MIC is “A (an MIC (in μg/mL) of less or equal to 1 is assigned the letter A)”.

Question: What about the MIC [10] of the same compound?
Answer: The MIC was “B (a MIC of from 1 to 10 is assigned the letter B)”.

Some compounds may have been tested in ways that are not shown here.
